Anti-infective test results gathered from many reports (values: NIAID ChemDB through PubChem).

All rows: whole-cell or culture tests; organism: Poliovirus; endpoint: inhibition

Percent inhibition refers to the dose given; in toxicity tests it is the harm to the cells. Rows are shuffled and stem from different studies.

smiles,tested at,strain,cell line,value
CCC(=O)C(CCCCCCOc1ccc(OC)cc1Cl)C(=O)CC,0.14 µM,MEF (TYPE 2),HeLa,69%
C=C(CC[C@@H](COS(=O)(=O)O)[C@H]1CC[C@H]2[C@@H]3CC[C@@H]4[C@H](O)[C@H](OS(=O)(=O)O)CC[C@]4(C)[C@H]3[C@@H](O)C[C@]12C)C(C)C,10 µg/mL,SABIN (TYPE 3),VERO,33%
COc1cc(C(=O)Oc2c(-c3ccc(Cl)cc3)oc3ccccc3c2=O)cc(OC)c1OC(C)=O,1.56 µM,TYPE 2,HeLa,18%
CCC(O)c1ccc2c(c1)Sc1ccccc1O2,10 µg/mL,TYPE 3,BSC-1,100%
CC(=O)c1c(-c2ccc(Cl)c(Cl)c2)oc2ccccc2c1=O,25 µM,TYPE 2,HeLa,23%
Clc1ccc(C2COc3ccc(Cl)cc3C2)cc1,10 µM,II (TYPE 2),HEP-2,8%
CNC(=O)OC(C)c1ccc2c(c1)Sc1ccccc1O2,0.4 µg/mL,TYPE 3,BSC-1,24%
COc1cc(C(=O)Oc2c(-c3ccc(Cl)cc3)oc3ccccc3c2=O)ccc1O,6.25 µM,TYPE 2,HeLa,20%
CC(O)c1ccc2c(c1)Cc1ccccc1O2,2 µg/mL,TYPE 3,BSC-1,100%
c1ccc(C2COc3ccccc3C2)cc1,10 µM,TYPE 2,HEP-2,45%
CC(O)c1ccc2c(c1)S(=O)c1ccccc1O2,10 µg/mL,TYPE 3,BSC-1,15%
O=C(/C=C/c1ccc(O)c(O)c1)Oc1c(-c2ccc(Cl)cc2)oc2ccccc2c1=O,6.25 µM,TYPE 2,HeLa,12%
Clc1ccc(C2COc3ccccc3C2)cc1,10 µM,II (TYPE 2),HEP-2,0%
COc1cc(/C=C/C(=O)Oc2c(-c3ccc(Cl)c(Cl)c3)oc3ccccc3c2=O)ccc1OC(C)=O,0.39 µM,TYPE 2,HeLa,10%
CC12CC[C@H](OS(=O)(=O)O)CC1=CCC1C2CCC2(C)C(C(=O)COS(=O)(=O)O)CCC12,40 µg/mL,TYPE 3,VERO,0%
COc1cc(C(=O)Oc2c(-c3ccc(Cl)cc3)oc3ccccc3c2=O)cc(OC)c1O,1.56 µM,TYPE 2,HeLa,25%
C1=C(c2ccccc2)COc2ccccc21,10 µM,IA (TYPE 2),HEP-2,100%
COc1cc(/C=C/C(=O)Oc2c(-c3ccc(Cl)cc3)oc3ccccc3c2=O)ccc1OC(C)=O,1.56 µM,TYPE 2,HeLa,16%
Clc1ccc(C2CCc3ccccc3O2)c(Cl)c1,10 µM,SABIN (TYPE 2),HEP-2,5%
C/C(=N\O)c1ccc2c(c1)Sc1ccccc1O2,0.4 µg/mL,TYPE 3,BSC-1,16%
CC(C)/C=C/[C@@H](COS(=O)(=O)O)[C@H]1CC[C@H]2[C@@H]3CC[C@@H]4[C@H](O)[C@H](OS(=O)(=O)O)CC[C@]4(C)[C@H]3[C@@H](O)C[C@]12C,10 µg/mL,SABIN (TYPE 3),VERO,21%
CC(=O)O[C@H]1CC2=CCC3C(CCC4(C)C(C(CCC=C(C)C)COS(=O)(=O)O)CCC34)C2(C)C[C@@H]1OS(=O)(=O)O,40 µg/mL,TYPE 3,VERO,36.3%
CC(O)c1ccc2c(c1)Sc1ccccc1O2,10 µg/mL,TYPE 3,BSC-1,100%
Clc1ccc(C2=Cc3ccccc3OC2)cc1,10 µM,SABIN (TYPE 2),HEP-2,20%
CC(=O)c1ccc2c(c1)Sc1cc(C(C)=O)ccc1O2,2 µg/mL,TYPE 3,BSC-1,13%
CC12CC[C@H](O)CC1=CCC1C2CCC2(C)C(C(=O)COS(=O)(=O)O)CCC12,80 µg/mL,TYPE 3,VERO,0%

Repeating the first 3 entries:

smiles,tested at,strain,cell line,value
CCC(=O)C(CCCCCCOc1ccc(OC)cc1Cl)C(=O)CC,0.14 µM,MEF (TYPE 2),HeLa,69%
C=C(CC[C@@H](COS(=O)(=O)O)[C@H]1CC[C@H]2[C@@H]3CC[C@@H]4[C@H](O)[C@H](OS(=O)(=O)O)CC[C@]4(C)[C@H]3[C@@H](O)C[C@]12C)C(C)C,10 µg/mL,SABIN (TYPE 3),VERO,33%
COc1cc(C(=O)Oc2c(-c3ccc(Cl)cc3)oc3ccccc3c2=O)cc(OC)c1OC(C)=O,1.56 µM,TYPE 2,HeLa,18%